Anti-infective test results gathered from many reports (values: NIAID ChemDB through PubChem).

Shared fields: target-level tests; species: HIV-1; protein: Reverse transcriptase

ICn is the concentration giving n% inhibition. Blank or dashed fields: not listed here. Conditions beyond the fields shown may differ between rows.

SMILES	read-out	strain	changes	read by	value
O=C(O)CCCC#CC#CCCCCCCCCCCCCCc1ccco1	IC50				39.9 µg/mL
Cc1cccc2c1nc(-c1cccc3ccccc13)n2Cc1c(F)cccc1F	IC50				>10 µM
CCN1c2ncccc2C(=O)N(C)c2nccc(C)c21	IC50			nucleotide incorporation	>>1 µM
CCN1c2ncc(CCCc3ccccc3)cc2C(=O)N(C)c2cccnc21	IC50	WT		nucleotide incorporation / radiometric	<1 µM
CC(=O)O[C@@H]1C(=O)C2=C(C(=O)C[C@H]3C(C)(C)[C@@H](O)CC[C@]23C)[C@]2(C)C(=O)C[C@H]([C@@H](C)CC(=O)C[C@@H](C)C(=O)O)[C@@]12C	IC50			RT activity	>250 µM
Fc1cccc(F)c1Cn1c(-c2c(F)cccc2F)nc2cc(Cl)ccc21	IC50				~10 µM
O=C1CSC(c2c(F)cccc2F)N1c1cccc(Br)n1	IC50			nucleotide incorporation / radiometric	0.91 µM
Nc1ncnc2c1ncn2[C@H]1CC[C@@H](COP(=O)(O)OP(=O)(O)OP(=O)(O)O)O1	Ki	HXB2D		nucleotide incorporation	0.29 µM
CCN1c2ncc(C(C)O)cc2C(=O)N(C)c2ccc(Cl)nc21	IC50	WT		nucleotide incorporation / radiometric	<1 µM
Cc1cn([C@@H]2O[C@H](CO[Si](C)(C)C(C)(C)C)C3(OS(=O)(=O)C(/C=C/CO)=C3N)[C@H]2O[Si](C)(C)C(C)(C)C)c(=O)n(C)c1=O	IC50		RT-E138K	nucleotide incorporation	>500 µM
Cc1cccc2c1nc(C(C)C)n2Cc1c(F)cccc1F	IC50				>10 µM
Cc1cn([C@H]2CC[C@@H](COP(=O)(O)OP(=O)(O)OP(=O)(O)O)O2)c(=O)[nH]c1=O	Ki				0.025 µM
Fc1cccc(F)c1Cn1c(-c2c(F)cccc2F)nc2cc(Br)ccc21	IC50				>10 µM
Cc1cccc2c1nc(-c1ccc(C#N)cc1)n2Cc1c(F)cccc1F	IC50				>10 µM
CCN1c2ncc(COc3cccc(C(=O)O)c3)cc2C(=O)N(C)c2ccc(Cl)nc21	IC50	WT		nucleotide incorporation / radiometric	<1 µM
O=c1c2cc(O)ccc2oc2cc(O)cc(O)c12	IC50			RT activity / radiometric	78.85 µM
CC(C)[C@@H](C)/C=C/[C@@H](C)[C@H]1CC[C@H]2C3=CC=C4C[C@@H](O)CC[C@]4(C)[C@H]3CC[C@]12C	IC50			RT activity	>250 µM
O=c1c2cccc(O)c2oc2cc(O)cc(O)c12	IC50			RT activity / radiometric	428 µM
Cc1cccc2c1ncn2Cc1c(F)cccc1F	IC50				>10 µM
Cc1cn([C@H]2C[C@H](O)[C@@H](COP(=O)(O)NP(=O)(O)OP(=O)(O)O)O2)c(=O)[nH]c1=O	Ki				2.4 µM
CCN1c2cccnc2N(C)C(=O)c2cc(Br)cnc21	IC50			nucleotide incorporation	>>1 µM
CC(=O)c1ccc(C)cc1NC(C(N)=O)c1c(Cl)cccc1Cl	IC50			nucleotide incorporation	0.35 µg/mL
CN1c2ccccc2N2C(=O)CN(CCN3CCCCC3)C(=O)C2c2cccn21	IC50	IIIB		RT activity	100 µM
C[C@H](CC(=O)C[C@@H](C)[C@H]1CC(=O)[C@@]2(C)C3=C(C(=O)C[C@]12C)[C@@]1(C)CC[C@H](O)C(C)(C)[C@@H]1C[C@@H]3O)C(=O)O	IC50			RT activity	>250 µM
COc1cc2c(c(OC)c1OC)-c1c(cc3c(c1OC)OCO3)C[C@H](C)[C@H](C)C2	IC50		K103N	nucleotide incorporation	90 µM
Cc1cccc2c1nc(C(C)C)n2Cc1c(F)cccc1F	IC50				>10 µM
CC(=O)O[C@H]1C2(C=O)C(C=O)=CC[C@@]1(C)CCC2[C@H](C)CCC=C(C)C	IC50			nucleotide incorporation / radiometric	>100 µM
C[C@]12CC[C@H](OS(=O)(=O)O)CC1=CC[C@@H]1[C@@H]2CC[C@]2(C)C(=O)CC[C@@H]12	IC50	LAV			>100 µM
Cc1ccc(CCNC(=S)Nc2ccc(Br)cn2)cc1	IC50			nucleotide incorporation / radiometric	0.1 µM
Cc1cc(C)c2nc(-c3c(F)cccc3F)n(Cc3c(F)cccc3F)c2c1	IC50				>10 µM
CCN1c2ncc(COc3ccc(F)cc3)cc2C(=O)N(C)c2ccc(Cl)nc21	IC50	WT		nucleotide incorporation / radiometric	<1 µM
Fc1cccc(F)c1Cn1c(-c2c(F)cccc2F)nc2ccc(Cl)cc21	IC50				<10 µM
Fc1cccc(F)c1Cn1c(-c2c(F)cccc2F)nc2c(Br)cccc21	IC50				<10 µM
CNc1ccc(Cl)cc1S(=O)(=O)c1ccccc1[N+](=O)[O-]	IC50		RT-L100I		5 µM
CCCCCCCCCCCCCCCCCCCCCCC(=O)O[C@@H]1[C@@H](C)[C@@]2(O)[C@@H](C=C(COC(C)=O)C[C@]3(O)C(=O)C(C)=C[C@@H]23)[C@@H]2C(C)(C)[C@]12O	IC50			RT activity / absorbance	>67.5 µM
Cc1cn([C@@H]2O[C@H](CO[Si](C)(C)C(C)(C)C)[C@@]3(OS(=O)(=O)C(/C=C/CO)=C3N)[C@H]2O[Si](C)(C)C(C)(C)C)c(=O)[nH]c1=O	IC50		RT-E138K	nucleotide incorporation	>500 µM
Cc1cccc2c1nc(-c1ccc3ccccc3c1)n2Cc1c(F)cccc1F	IC50				>10 µM
Cc1cccc2nc(-c3c(F)cccc3F)n(Cc3c(F)cccc3F)c12	IC50				>10 µM
CCN1c2cc(-c3cccc(N)c3)cnc2N(C)C(=O)c2cccnc21	IC50			nucleotide incorporation	>>1 µM
CCN1c2ncc(COc3cccc(C(=O)OC)c3)cc2C(=O)N(C)c2ccc(Cl)nc21	IC50		RT-Y181C	nucleotide incorporation / radiometric	>1 µM
C[C@H](CC[C@H](O)C(C)(O)CO)[C@H]1CC[C@@]2(C)C3=CC[C@H]4C(C)(C)C(=O)CC[C@]4(C)C3=CC[C@]12C	IC50			RT activity	>250 µM

The first 3 rows once more:

O=C(O)CCCC#CC#CCCCCCCCCCCCCCc1ccco1 ; read-out: IC50 ; value: 39.9 µg/mL
Cc1cccc2c1nc(-c1cccc3ccccc13)n2Cc1c(F)cccc1F ; read-out: IC50 ; value: >10 µM
CCN1c2ncccc2C(=O)N(C)c2nccc(C)c21 ; read-out: IC50 ; read by: nucleotide incorporation ; value: >>1 µM